A mixed list of measured activities; the numbers were collected in NIAID ChemDB.

Common to all: whole-cell or culture tests; agent: Mycobacterium tuberculosis

Neighbouring rows are from separate reports. MIC50, MIC90 and the like: level of inhibition, or share of isolates inhibited. An empty or dashed field is not shown. MIC bound comes from a single tested concentration. ECn is the concentration giving n% inhibition of infection, replication or growth. Percent inhibition refers to the dose given; in toxicity tests it is the harm to the cells.

SMILES	changes	endpoint	read by	strain	setting	tested at	value
COc1ccc(CSc2ccccn2)cc1		inhibition		H37Rv		6.25 µg/mL	0%
CC(C)(C)OC(=O)NC1C2CN(c3cc4c(=O)c(C(=O)O)c5n(c4cc3F)CS5)CC21		MIC	agar	H37Rv			0.87 µM
NNC(=O)c1ccncc1	T460C Cys154Arg	MIC		AZD5847-resistant 8.9			0.06 µg/mL
COc1cc2c(cc1OC)C1c3cc(OC)c(OC)cc3CC(=O)N1CC2		MIC bound	BACTEC	H37Rv			>12.5 µg/mL
Cc1cccc(Sc2ncccn2)c1		inhibition		H37Rv		6.25 µg/mL	0%
CN1CCN(c2cc3c(=O)c(C(=O)O)c4n(c3cc2F)CS4)CC1c1ccccc1		MIC	agar	H37Rv			7.36 µM
C[C@@H](O)[C@H]1C(=O)N2C(C(=O)O)=C(SCCN=CN)C[C@H]12		MIC		Isolate 3			4 µg/mL
O=C(CSCC(=O)N/N=C/c1ccccc1)N/N=C/c1ccccc1		inhibition	BACTEC	H37Rv		12.5 µg/mL	1%
O=c1oc2ccccc2c(O)c1C1=NNC(c2ccccc2-c2ccccn2)C1	Isoniazid-resistant	MIC90	agar	INHR-MTB			16.25 µg/mL
O=C(/C=C/c1ccccc1Cl)c1ccccc1		MIC	resazurin	H37Rv	7 d		32 µg/mL
O=c1[nH]nc2c3cccc4cccc(c5ccc(O)c1c52)c43		MIC bound	BACTEC	H37Rv			≤12.5 µg/mL
CC1(C)[C@H](C(=O)O)N2C(=O)C[C@H]2S1(=O)=O		MIC		Isolate 4			>16 µg/mL
CC(=O)NC[C@H]1CN(c2ccc(N3CCOCC3)c(F)c2)C(=O)O1		MIC		AZD5847-resistant 8.8			16 µg/mL
CC(C)C[C@@H]1NC(=O)[C@H](Cc2c[nH]c3ccccc23)NC(=O)[C@@H](CCCN=C(N)N)NC(=O)[C@H](CC(N)=O)NC(=O)[C@H](C(C)C)NC(=O)[C@@H](CC(C)C)NC1=O		EC50	turbidity	HN878			0.66 µM
Cc1cc2oc(=O)c(C3=NN(c4ccccc4)C(c4ccc(C(F)(F)F)cc4)C3)c(O)c2cc1C	Isoniazid-resistant	MIC90	agar	INHR-MTB			28.25 µg/mL
COc1cccc(Sc2ncccn2)c1		MIC		H37Ra			>12.8 µg/mL
CC(C)C[C@@H]1NC(=O)[C@H](Cc2c[nH]c3ccccc23)NC(=O)[C@H](CCCCN)NC(=O)[C@H](CC(N)=O)NC(=O)[C@H](C(C)C)NC(=O)[C@@H](CC(C)C)NC1=O		EC50	turbidity	CDC1551			>30 µM
O=C([C@@H](O)CO)N1CC=C(c2c(F)cc(N3C[C@H](COc4ccon4)OC3=O)cc2F)CC1		MIC	broth dilution	H37Rv Erdman			0.5 µg/mL
O=C(O)c1c2n(c3cc(F)c(N4CCN(Cc5ccc6c(c5)OCO6)CC4)cc3c1=O)CS2	MDR-TB	MIC	agar	H37Rv			13.31 µM
COc1ccc(CSc2ccncc2)cc1		inhibition		H37Rv		6.25 µg/mL	8%
CCCCC(CC)CN1CN(CC(CC)CCCC)CC(C)(NCCNCc2ccc(C(F)(F)F)cc2)C1		MIC					50 µM
CC1COc2c(N3CCN(C)CC3)c(F)cc3c(=O)c(C(=O)O)cn1c23		MIC		H37Rv			1 µg/mL
COc1ccc(Sc2nc(Cl)nc3nc[nH]c23)cc1OC		MIC		H37Ra			>12.8 µg/mL
CCOc1ccccc1CNCCNC(c1ccccc1)c1ccccc1		MIC					50 µM
O=C(O)c1c2n(c3cc([N+](=O)[O-])c(N4CCN(C(=O)c5ccco5)CC4)cc3c1=O)CS2		MIC	agar	H37Rv			1.71 µM
Cc1ccc(S(=O)(=O)N2CCn3ncc(C#N)c32)cc1		MIC bound	BACTEC	H37Rv			>12.5 µg/mL
CCCCCCc1ccc(Oc2ccccc2)c(O)c1		MIC99		NHN382			3.1 µg/mL
CC(C)C[C@@H]1NC(=O)[C@H](Cc2c[nH]c3ccccc23)NC(=O)[C@@H](CCCN)NC(=O)[C@H](CC(N)=O)NC(=O)[C@H](C(C)C)NC(=O)[C@@H](CC(C)C)NC1=O		EC50	turbidity	H37Rv			2.12 µM
CN[C@@H]1[C@H](O[C@H]2[C@H](O[C@H]3[C@H](O)[C@@H](O)[C@H](N=C(N)N)[C@@H](O)[C@@H]3N=C(N)N)O[C@@H](C)[C@]2(O)C=O)O[C@@H](CO)[C@H](O)[C@H]1O		MIC		Praha 4			>27.5 µM
CCOC(=O)c1ncc(Cl)cc1NC(=O)CC(=O)Nc1cc(Cl)cnc1C(=O)OCC		MIC bound	BACTEC	H37Rv			≤12.5 µg/mL
Cc1cc2oc(=O)c(C3=NN(c4ccccc4)C(c4ccc(O)cc4O)C3)c(O)c2cc1C	Isoniazid-resistant	MIC90	agar	INHR-MTB			>6.25 µg/mL
Cc1ccnc(NC2=CC(=O)C(=O)c3ccccc32)c1		MIC bound	resazurin	H37Rv			>6.25 µg/mL
CC1(C)CC2CC(C)(CN2CCNC[C@@H]2CC[C@H]3C[C@@H]2C3(C)C)C1		MIC					6.25 µM
CCOC(=O)c1c(N)sc2c1C(C(=O)OCC)CC2		MIC bound	resazurin	H37Rv			>6.25 µg/mL
NNC(=O)c1ccncc1		MBC		1620-6			0.05 µg/mL
O=C1OC(=O)C2C1C1OC2[C@@H](Br)[C@@H]1Br		inhibition	BACTEC	H37Rv		12.5 µg/mL	5%
O=c1oc2ccccc2c(O)c1C1=NNC(c2ccc(O)cc2O)C1	Isoniazid-resistant	MIC90	agar	INHR-MTB			>6.25 µg/mL
CC[C@H](C)C(=O)O[C@@H]1C[C@@]2(C)[C@H](c3ccoc3)OC(=O)C[C@]23OC2(C)OC34[C@H](OC(=O)C(C)C)[C@]3(O)[C@@H](OC(=O)[C@]5(C)O[C@H]5C)C5(C)C[C@]3(O)[C@](C)([C@H]5CC(=O)OC)C14O2		MIC	BACTEC	H37Rv			≥12.5 µg/mL
COc1cccc(/C=C/C(=O)c2c(O)c3ccccc3oc2=O)c1O	Isoniazid-resistant	MIC90	agar	INHR-MTB			>6.25 µg/mL
C[C@@H]1[C@H]2C[C@@H](C[C@H]1NCCN[C@@H](C)C1CCCCC1)C2(C)C		MIC					25 µM
COC(=O)c1cnccn1		inhibition	BACTEC	H37Rv		12.5 µg/mL	8%
CCc1ccc(Oc2ccccc2)c(O)c1		MIC99		H37Rv			17.5 µM
COc1cc2c(cc1OC)C1CC(CC(N)=O)(C(N)=O)CCN1CC2		inhibition	BACTEC	H37Rv		12.5 µg/mL	0%
CN[C@@H]1[C@@H](O)[C@@H](O[C@@H]2[C@@H](O)[C@H](O[C@H]3O[C@H](CN)CC[C@H]3N)[C@@H](N)C[C@H]2N)OC[C@]1(C)O		MIC		234/2005			0.26 µM
C[C@]1(COc2ccc(N3CCC(Oc4ccc(OC(F)(F)F)cc4)CC3)cc2)Cn2cc([N+](=O)[O-])nc2O1		MIC90		49 strains (SM-susceptible)			0.012 µg/mL
CC1(C)S[C@@H]2[C@H](NC(=O)[C@H](N)c3ccccc3)C(=O)N2[C@H]1C(=O)O		MIC		JNS			>92 µM
CC(C)C[C@@H]1NC(=O)[C@H](Cc2c[nH]c3ccccc23)NC(=O)[C@@H](CCCCN)NC(=O)[C@H](CC(N)=O)NC(=O)[C@H](C(C)C)NC(=O)[C@@H](CC(C)C)NC1=O		MIC	turbidity	H37Rv			0.99 µM
CC1(C)[C@H]2CC[C@@H](CNCCNCCc3ccccc3F)[C@@H]1C2		MIC					50 µM
O=C(O)C1=CC(=Nc2cc(Br)c(O)c(Br)c2)C=CC1=O		inhibition	BACTEC	H37Rv		12.5 µg/mL	5%
NC1CCN(c2nc3c(cc2F)c(=O)c(C(=O)O)cn3-c2ccc(F)cc2F)C1		MIC50		Drug-resistant			>8 µg/mL
CCCCC(CC)CN1CN(CC(CC)CCCC)CC(C)(NCCN[C@H]2C[C@@H]2c2ccccc2)C1		MIC					50 µM
COc1ccc(C(=O)/C=C/c2ccccc2Cl)c(F)c1		MIC	MTT	H37Rv	21 d		32 µg/mL
CCCCCCCCCC[C@H](C(=O)O)[C@]1(C(=O)O)CCC(=O)O1		inhibition	BACTEC	H37Rv		12.5 µg/mL	-5%
CC1COc2c(N3CCN(C)CC3)c(F)cc3c(=O)c(C(=O)O)cn1c23		MIC		ATCC 35823			0.5 µg/mL
CC1=NN(c2ccccc2)C(=O)C1N=Nc1ccc(S(=O)(=O)Nc2ncccn2)cc1		MIC	BACTEC	H37Rv			≥12.8 µg/mL
O=C(/C=C/c1ccccc1)c1ccc(F)cc1		MIC	resazurin	H37Rv	14 d		32 µg/mL
O=C1c2ccc(O)cc2C(=O)c2c1ccc(O)c2O		inhibition	BACTEC	H37Rv		12.5 µg/mL	-19%
NNC(=O)c1ccncc1	Isoniazid-resistant	MIC90	agar	INHR-MTB			11.37 µg/mL
Cc1cc(-c2cc3c(cc2F)c(=O)c(C(=O)O)cn3C2CC2)cc(C)n1		MIC		131-4			0.5 µg/mL
C=C(C)/C=C/[C@]12C[C@H](C)[C@H]3CC[C@](C)(NC)[C@@H](CC[C@H]1C)[C@@H]32		inhibition		H37Rv		8 µg/mL	7%
COc1ccc(C(=O)/C=C/c2ccccc2Cl)cc1		MIC	MTT	H37Rv	21 d		64 µg/mL
CC1=NN(C(=O)CC(=O)Nc2ccc(C(=O)O)cc2)C(=O)C1N=Nc1ccccc1C(=O)O		MIC bound	BACTEC	H37Rv			>12.8 µg/mL
CC(C)c1ccc2c(c1)CC[C@H]1[C@](C)(CNCCNCc3ccccc3Sc3ccccc3CO)CCC[C@]21C		MIC					50 µM
CC1(C)S[C@@H]2[C@H](NC(=O)[C@H](N)c3ccc(O)cc3)C(=O)N2[C@H]1C(=O)O		MIC		Isolate 3			>16 µg/mL
Cc1ccccc1CSc1ccncc1		MIC90		H37Rv			>6.25 µg/mL
CC1(C)Nc2cccc3c(N=Nc4ccc(N=Nc5ccccc5)c5ccccc45)ccc(c23)N1		MIC		EMB-R			2 µg/mL
O=C(/C=C/c1ccccc1)c1ccccc1		MIC	MTT	H37Rv	7 d		32 µg/mL
C[C@H]1C[C@H](N)CN1c1cc2c(cc1F)c(=O)c(C(=O)O)cn2-c1ccc(F)cc1F		MIC90		DRUG-SUS			4 µg/mL
COc1ccc(C(=O)/C=C/c2ccc(F)cc2Cl)cc1		MIC	resazurin	H37Rv	21 d		64 µg/mL
C[C@H]1COc2c(N3CCN(C)CC3)c(F)cc3c(=O)c(C(=O)O)cn1c23		MIC50		MDR			2 µg/mL
COc1cccc(NC(=O)CC(=O)NNCC(=O)Nc2nnc(-c3ccc(N(CCC#N)S(=O)(=O)c4ccccc4)cc3)s2)c1		inhibition	BACTEC	H37Rv		12.5 µg/mL	0%
O=C(O)[C@H]1/C(=C/CO)O[C@@H]2CC(=O)N21		MIC		Isolate 3			>16 µg/mL
CC(C)(C)CC(C)(C)NCCNCc1ccc(C(F)(F)F)cc1		MIC					37.5 µM
CC1CN(c2cc3c(cc2F)c(=O)c(C(=O)O)cn3-c2ccc(F)cc2F)CCN1		MIC50		MDR			8 µg/mL
O=C1CC[C@@]2(O)[C@H]3Cc4ccc(O)c5c4[C@@]2(CCN3Cc2ccoc2)[C@H]1O5		inhibition	BACTEC	H37Rv		12.5 µg/mL	35%
C=C1C(=O)N[C@@H](CC(C)C)C(=O)N[C@H](CC(C)C)C(=O)N[C@H](C(=O)O)[C@H](C)C(=O)N[C@H](CCCN=C(N)N)C(=O)N[C@@H](/C=C/C(C)=C/[C@H](C)[C@H](Cc2ccccc2)OC)[C@@H](C)C(=O)N[C@@H](C(=O)O)CCC(=O)N1C	Isoniazid-resistant	MIC	resazurin				26.5 µM
CC(C)(C)NC(=O)C1c2ccccc2CCN1c1cc2c(=O)c(C(=O)O)c3n(c2cc1[N+](=O)[O-])CS3		MIC	agar	H37Rv			3.07 µM
CC(C)N=c1cc2n(-c3ccc(Cl)cc3)c3ccccc3nc-2cc1Nc1ccc(Cl)cc1		MIC		Praha 4			0.53 µM
O=C1N[C@@H]2C(=C[C@H](O)[C@@H](O)[C@H]2O)c2cc3c(cc21)OCO3		MIC bound	BACTEC	H37Rv			>12.5 µg/mL
O=C(O)c1c2n(c3cc(F)c(N4CCC(n5c(=O)[nH]c6ccc(Cl)cc65)CC4)cc3c1=O)CS2	MDR-TB	MIC	agar	H37Rv			6.25 µM
O=C(/C=C/c1ccccc1)c1ccc(O)cc1		MIC	MTT	H37Rv	14 d		32 µg/mL
CCCCCCCCCCCNCCNCc1cccc(F)c1		MIC					50 µM

Repeating the first 9 entries:

SMILES,changes,endpoint,read by,strain,setting,tested at,value
COc1ccc(CSc2ccccn2)cc1,,inhibition,,H37Rv,,6.25 µg/mL,0%
CC(C)(C)OC(=O)NC1C2CN(c3cc4c(=O)c(C(=O)O)c5n(c4cc3F)CS5)CC21,,MIC,agar,H37Rv,,,0.87 µM
NNC(=O)c1ccncc1,T460C Cys154Arg,MIC,,AZD5847-resistant 8.9,,,0.06 µg/mL
COc1cc2c(cc1OC)C1c3cc(OC)c(OC)cc3CC(=O)N1CC2,,MIC bound,BACTEC,H37Rv,,,>12.5 µg/mL
Cc1cccc(Sc2ncccn2)c1,,inhibition,,H37Rv,,6.25 µg/mL,0%
CN1CCN(c2cc3c(=O)c(C(=O)O)c4n(c3cc2F)CS4)CC1c1ccccc1,,MIC,agar,H37Rv,,,7.36 µM
C[C@@H](O)[C@H]1C(=O)N2C(C(=O)O)=C(SCCN=CN)C[C@H]12,,MIC,,Isolate 3,,,4 µg/mL
O=C(CSCC(=O)N/N=C/c1ccccc1)N/N=C/c1ccccc1,,inhibition,BACTEC,H37Rv,,12.5 µg/mL,1%
O=c1oc2ccccc2c(O)c1C1=NNC(c2ccccc2-c2ccccn2)C1,Isoniazid-resistant,MIC90,agar,INHR-MTB,,,16.25 µg/mL